Anti-infective test results gathered from many reports (values: NIAID ChemDB through PubChem).

Shared fields: growth or infection tests; species: HIV-1; cells: CEM; endpoint: EC50

Neighbouring rows are from separate reports.

Cc1c(F)cccc1C(=O)N[C@@H](Cc1ccccc1)[C@H](O)CN1C[C@H]2CCCC[C@H]2C[C@H]1C(=O)NC(C)(C)C ; strain: IIIB ; read by: cytopathic effect / MTT ; value: 0.973 µg/mL
O=C1c2ccccc2C(=O)N1[C@@H]1CC2CC3CC(C2)C1C3 ; strain: IIIB ; read by: syncytia ; value: >4 µg/mL
CCn1cc(C(=O)O)c(=O)c2cc(F)c(N3CCN(CN4C(=O)C(=Nc5ccc(S(=O)(=O)Nc6nc(C)cc(C)n6)cc5)c5cc(F)ccc54)CC3)cc21 ; strain: IIIB ; read by: cytopathic effect / XTT ; value: >117 µM
O=C(c1ccccc1SSc1ccccc1C(=O)N1CCC(O)C1)N1CCC(O)C1 ; read by: cytopathic effect / XTT ; value: 65 µM
Cc1ccc(C)c(CS(=O)(=O)c2cccc[n+]2[O-])c1 ; mutations: RT-K103N ; read by: cytopathic effect ; value: 11 µg/mL
O=c1ccn(C[C@H]2CCC[C@H]2CO)c(=O)[nH]1 ; read by: cytopathic effect ; value: >100 µg/mL
O=C(c1ccccc1)N(CCc1ccccc1)C[C@H](O)CN(CC1CCCC1)S(=O)(=O)C1CCCC1 ; strain: IIIB ; read by: p24 ; value: <1 µM
NS(=O)(=O)c1ccc(NC(=O)c2ccccc2CSc2ccccc2C(=O)Nc2ccc(S(N)(=O)=O)cc2)cc1 ; read by: XTT ; value: >100 µM
O=C1C(=O)c2ccccc2C(O)=C1C1=C(Cl)C(=O)c2ccccc2C1=O ; strain: IIIB ; read by: cytopathic effect / MTT ; value: 2.6 µM
O=C(NCCCN1CCN(CCCNC(=O)c2cc3cc(O)c(O)cc3[nH]2)CC1)c1cc2cc(O)c(O)cc2[nH]1 ; read by: cytopathic effect / MTT ; value: >88 µM
COc1cccc2c1C(=O)C(C1=C(Cl)C(=O)c3ccccc3C1=O)=C(Cl)C2=O ; strain: IIIB ; read by: cytopathic effect / MTT ; value: 6.6 µM
O=c1ccn([C@H]2CCC[C@H]2CO)c(=O)[nH]1 ; read by: cytopathic effect ; value: >100 µg/mL
O=C(N[C@@H](Cc1ccccc1)C(=O)C(F)(F)N(Cc1ccccc1)S(=O)(=O)c1ccccc1)OC1COCOC1 ; strain: IIIB ; read by: p24 ; value: <1 µM
O=C1c2ccccc2[C@]2(O)C3C4C[C@H]5CC(C[C@H]3C5)C4N12 ; strain: IIIB ; read by: syncytia ; value: >20 µg/mL
CO[C@H]1N([C@H]2C=C[C@@H](CO)O2)C(=O)NC(=O)[C@]1(C)Cl ; read by: cytopathic effect / XTT ; value: 375 µM
CC(C)(C)NC(=O)[C@@H]1C[C@@H]2CCCC[C@@H]2CN1C[C@@H](O)[C@H](Cc1ccccc1)NC(=O)c1cccc(O)c1F ; strain: IIIB ; read by: cytopathic effect / MTT ; value: 1.19 µg/mL
O=C1c2ccccc2C(=O)N1CCC1C2CC3CC(C2)CC1C3 ; strain: IIIB ; read by: syncytia ; value: >4 µg/mL
O=C(NC1CC1)c1ccccc1SSc1ccccc1C(=O)NC1CC1 ; read by: XTT ; value: 24 µM
O=c1[nH]c(=O)n(C[C@H]2CCC[C@H]2CO)cc1I ; read by: cytopathic effect ; value: >100 µg/mL
O=C(NCc1ccc(O)c(O)c1)c1cc2cc(O)c(O)cc2[nH]1 ; read by: cytopathic effect / MTT ; value: >33 µM
CC(=O)Oc1ccccc1COP(=O)(OCc1ccccc1OC(C)=O)OC[C@@H]1C=C[C@H](n2cc(C)c(=O)[nH]c2=O)O1 ; value: 0.12 µM
CO[C@H]1N([C@H]2C[C@H](N=[N+]=[N-])[C@@H](CO)O2)C(=O)NC(=O)[C@]1(C)Br ; read by: cytopathic effect / XTT ; value: 5.79 µM
CC(C)CN(CCC(O)Cc1ccccc1C(=O)NC(C)(C)C)S(=O)(=O)c1ccccc1 ; strain: IIIB ; read by: p24 ; value: <1 µM
CO[C@H]1N([C@H]2C=C[C@@H](CO)O2)C(=O)NC(=O)[C@]1(C)Br ; read by: cytopathic effect / XTT ; value: 54.6 µM
O=C(NCc1ccccc1)c1cc2cc3c(cc2[nH]1)OCO3 ; read by: cytopathic effect / MTT ; value: >200 µM
Cc1cn([C@H]2C[C@H](N=[N+]=[N-])[C@@H](COP(=O)(OCCC#N)O[C@H]3CC[C@@]4(C)C(=CC[C@@H]5[C@@H]4CC[C@]4(C)C([C@H](C)CCCC(C)C)CC[C@@H]54)C3)O2)c(=O)[nH]c1=O ; read by: cytopathic effect / MTT ; value: 3.4 µM
CC1(C)C=Cc2c(ccc3c2C(=O)C(=O)C(C2=C(I)C(=O)c4ccccc4C2=O)=C3O)O1 ; strain: IIIB ; read by: cytopathic effect / MTT ; value: 2 µM
CC(C)CC(NC(=O)c1ccccc1SSc1ccccc1C(=O)NC(CC(C)C)C(=O)O)C(=O)O ; read by: XTT ; value: 8.9 µM
COc1ccc(N2CCN(CN3C(=O)C(=Nc4ccc(S(=O)(=O)Nc5nc(C)cc(C)n5)cc4)c4ccccc43)CC2)cc1 ; strain: IIIB ; read by: cytopathic effect / XTT ; value: >34.8 µM
O=C(Nc1ccc(F)cc1)c1ccccc1SSc1ccccc1C(=O)Nc1ccc(F)cc1 ; read by: XTT ; value: 4.5 µM
O=C(Nc1nccs1)c1ccccc1SSc1ccccc1C(=O)Nc1nccs1 ; read by: cytopathic effect / XTT ; value: 12 µM
Cc1cc(C)c(CS(=O)c2cccc[n+]2[O-])c(C)c1 ; mutations: RT-K103N ; read by: cytopathic effect ; value: 11 µg/mL
NNC(=O)c1ccccc1SSc1ccccc1C(=O)NN ; read by: cytopathic effect / XTT ; value: >16 µM
O=C(c1ccccc1)N(CCc1ccccc1)C[C@H](O)CN(CC1CCCC1)S(=O)(=O)c1nc2ccccc2o1 ; strain: IIIB ; read by: p24 ; value: <1 µM
Cc1ccc(C)c(CS(=O)c2ccc(Cl)c[n+]2[O-])c1 ; strain: IIIB ; read by: cytopathic effect ; value: 2 µg/mL
O=C(c1ccccc1)N(CCc1ccccc1)C[C@H](O)CN(CC1CCCC1)S(=O)(=O)c1nc2ccccc2[nH]1 ; strain: IIIB ; read by: p24 ; value: <1 µM
Cc1c(N)cccc1C(=O)N[C@@H](Cc1ccccc1)[C@@H](O)CN1C[C@H]2CCCC[C@H]2C[C@H]1C(=O)NC(C)(C)C ; strain: IIIB ; read by: cytopathic effect / MTT ; value: 0.244 µg/mL
Cc1ccc(C)c(C(Cl)S(=O)(=O)c2cc(C)cc[n+]2[O-])c1 ; strain: RF ; read by: cytopathic effect ; value: 1 µg/mL
CC1(C)C=Cc2c(ccc3c2C(=O)C(=O)C(C2=C(Cl)C(=O)c4ccccc4C2=O)=C3O)O1 ; strain: IIIB ; read by: cytopathic effect / MTT ; value: 2.8 µM
O=C(c1cc2cc3c(cc2[nH]1)OCO3)N1CCN(C(=O)c2cc3cc4c(cc3[nH]2)OCO4)CC1 ; read by: cytopathic effect / MTT ; value: >200 µM
Cc1cnccc1C(=O)N[C@H](CSc1ccccc1)[C@@H](O)CN1CCN(Cc2cccnc2)C[C@H]1C(=O)NC(C)(C)C ; strain: IIIB ; read by: cytopathic effect / MTT ; value: 0.328 µg/mL
Cc1cn([C@H]2C=C[C@@H](CO)O2)c(=O)[nH]c1=O ; value: 0.33 µM
COc1ccc(S(=O)(=O)N(CC[C@H](O)CN(CC(C)C)S(=O)(=O)c2ccc(OC)cc2)CC2CCCC2)cc1 ; strain: IIIB ; read by: p24 ; value: <0.1 µM
Cc1cc(C)nc(NS(=O)(=O)c2ccc(N=C3C(=O)N(CN4CCN(c5cc6c(cc5F)c(=O)c(C(=O)O)cn6C)CC4C)c4ccccc43)cc2)n1 ; strain: IIIB ; read by: cytopathic effect / XTT ; value: >116 µM
CC(C)(C)NC(=O)[C@@H]1C[C@@H]2CCCC[C@@H]2CN1C[C@H](O)[C@H](Cc1ccccc1)NC(=O)c1c(Cl)ccc(O)c1Cl ; strain: IIIB ; read by: cytopathic effect / MTT ; value: 2.7 µg/mL
CC(C)C(NC(=O)c1ccccc1SSc1ccccc1C(=O)NC(C(=O)O)C(C)C)C(=O)O ; read by: cytopathic effect / XTT ; value: 17 µM
CCn1cc(C(=O)O)c(=O)c2cc(F)c(N3CCN(CN4C(=O)C(=Nc5ccc(S(=O)(=O)Nc6nc(C)cc(C)n6)cc5)c5ccccc54)C(C)C3)c(F)c21 ; strain: IIIB ; read by: cytopathic effect / XTT ; value: >117 µM
COC1=C(C2=C(I)C(=O)c3ccccc3C2=O)C(=O)c2ccc3c(c2C1=O)C=CC(C)(C)O3 ; strain: IIIB ; read by: cytopathic effect / MTT ; value: 2.7 µM
O=[N+]([O-])c1ccc(/C=N/Nc2ccnc3c(C(F)(F)F)cc(Cl)cc23)o1 ; strain: SN 123 ; read by: cytopathic effect / XTT ; value: 0.015 µM

For reference, 7 entries again:

Cc1cnccc1C(=O)N[C@H](CSc1ccccc1)[C@@H](O)CN1CCN(Cc2cccnc2)C[C@H]1C(=O)NC(C)(C)C ; strain: IIIB ; read by: cytopathic effect / MTT ; value: 0.328 µg/mL
COC1=C(C2=C(I)C(=O)c3ccccc3C2=O)C(=O)c2ccc3c(c2C1=O)C=CC(C)(C)O3 ; strain: IIIB ; read by: cytopathic effect / MTT ; value: 2.7 µM
O=c1ccn([C@H]2CCC[C@H]2CO)c(=O)[nH]1 ; read by: cytopathic effect ; value: >100 µg/mL
O=C(NC1CC1)c1ccccc1SSc1ccccc1C(=O)NC1CC1 ; read by: XTT ; value: 24 µM
O=c1ccn(C[C@H]2CCC[C@H]2CO)c(=O)[nH]1 ; read by: cytopathic effect ; value: >100 µg/mL
Cc1c(N)cccc1C(=O)N[C@@H](Cc1ccccc1)[C@@H](O)CN1C[C@H]2CCCC[C@H]2C[C@H]1C(=O)NC(C)(C)C ; strain: IIIB ; read by: cytopathic effect / MTT ; value: 0.244 µg/mL
O=c1[nH]c(=O)n(C[C@H]2CCC[C@H]2CO)cc1I ; read by: cytopathic effect ; value: >100 µg/mL

ECn is the concentration giving n% inhibition of infection, replication or growth.